Anti-infective test results gathered from many reports (values: NIAID ChemDB through PubChem).

Common to all: host cell toxicity; cell line: MT-4; read by: MTT / absorbance; endpoint: CC50

Conditions beyond the fields shown may differ between rows.

SMILES	value
COC(=O)c1ccc(NC(=O)COc2cccnc2-c2cccc3ccccc23)c(Br)c1	21.6 µM
O=C1CSC(=Nc2cccc(C(F)(F)F)c2)N1c1cccc(Br)c1	54 µM
Nc1nc(=S)c2nc(-c3ccccn3)c(-c3ccccn3)nc2[nH]1	47.64 µM
N#Cc1ccc(Nc2nnnn2-c2cccc(C(F)(F)F)c2)cc1	18 µM
Cc1cccc(Nc2ccccc2C(=O)Nc2ccc(C(=O)/C=C/c3ccc(Br)cc3)cc2)c1C	12.68 µM
NC1N=CNc2nc(-c3ccccn3)c(-c3ccccn3)nc21	12.1 µM
COc1ccc(N2C(=O)CSC2=Nc2cccc(C(F)(F)F)c2)cc1	44 µM
COC1=NC=C[C@H](O)C(O[C@@H]2O[C@H](CO)[C@@H](O)[C@H](O)[C@H]2O)S1	>100 µM
NS(=O)(=O)c1ccc(NC(=O)COc2cccnc2-c2cccc3ccccc23)cc1	143 µM
Nc1nc(NC2CC2)c2ncn([C@H]3C[C@@H](OCP(=O)(O)O)CO3)c2n1	>338 µM
O=c1[nH]c(=S)c2nc(-c3ccccn3)c(-c3ccccn3)nc2[nH]1	112 µM
Cc1cccc(Nc2ccccc2C(=O)Nc2ccc(C(=O)/C=C/c3ccc(N(C)C)cc3)cc2)c1C	2.06 µM
Nc1nc2nc(-c3ccccn3)c(-c3ccccn3)nc2c(=O)[nH]1	67.22 µM
CCCOC(=O)[C@H](Cc1ccccc1)NP(=O)(CO[C@H]1CO[C@@H](n2cc(C)c(N)nc2=O)C1)N[C@@H](Cc1ccccc1)C(=O)OCCC	85.5 µM
CC(=O)c1ccc(NC(=O)COc2cccnc2-c2cccc3ccccc23)cc1	8.23 µM
O=[N+]([O-])c1ccc(Nc2nnnn2-c2cccc(C(F)(F)F)c2)cc1	3.2 µM
Cc1cccc(Nc2ccccc2C(=O)Nc2ccc(-c3cc(-c4ccc(N(C)C)cc4)nc(=S)[nH]3)cc2)c1C	>7.02 µM
COc1ccc(-c2ncccc2OCC(=O)Nc2ccc(S(N)(=O)=O)cc2)cc1	243 µM
FC(F)(F)c1cccc(-n2nnnc2NCc2ccccc2)c1	>100 µM
CC(=O)c1ccc(NC(=O)COc2cccnc2-c2cccc3ccccc23)c(Br)c1	5.51 µM
Cc1cccc(Nc2ccccc2C(=O)Nc2ccc(-c3cc(-c4ccccc4)nc(=S)[nH]3)cc2)c1C	>13.9 µM
Fc1ccc(Nc2nnnn2-c2cccc(C(F)(F)F)c2)cc1Cl	41 µM
Cc1cn([C@H]2C[C@@H](OCP(=O)(O)O)CO2)c(=O)nc1N	>410 µM
O=C1CSC(=Nc2cccc(C(F)(F)F)c2)N1c1cccc(Cl)c1	>100 µM
CCCOC(=O)[C@H](Cc1ccccc1)NP(=O)(CO[C@H]1CO[C@@H](n2cnc3c(NC4CC4)nc(N)nc32)C1)N[C@@H](Cc1ccccc1)C(=O)OCCC	60.1 µM
COc1ccc(-c2ncccc2OCC(=O)Nc2ccc(C(N)=O)cc2)cc1	176 µM

For reference, 2 entries again:

SMILES	value
Nc1nc2nc(-c3ccccn3)c(-c3ccccn3)nc2c(=O)[nH]1	67.22 µM
O=C1CSC(=Nc2cccc(C(F)(F)F)c2)N1c1cccc(Cl)c1	>100 µM

CCn is the concentration with n% toxicity to the cells.